Three compounds from patent US6727265B2, “Phenoxyethyl-thiourea-pyridine compounds and their use for treatment of HIV-infections” (Parker Hughes Institute, priority 2000, dated 2004) can be followed below.

Molecules are shown by their SMILES. Which two values form the index is not stated here. Where only a bound is given, the exact number is not on record here.

The data set deals with HIV-1 strain HTLVIIIB
The experiment in a line: anti-HIV activity: inhibition of replication of HIV-1 strain HTLVIIIB in PBMC. Format: cell-based. To be noted: selectivity index.
As to `S=C(NCCOc1ccccc1)Nc1ccc(Cl)cn1` [III, N -[2-(Phenoxy)ethyl]-N′-[2-(5-chloropyridyl)]thiourea], the SI is recorded as >25,000. Regarding `S=C(NCCOc1ccccc1)Nc1ccc(Br)cn1` [IV, N-[2-(Phenoxy)ethyl]-N′-[2-(5-bromopyridyl)]thiourea], the SI was 18,400.

For `S=C(NCCOc1ccccc1)Nc1ccccn1` [II, N-[2-(Phenoxy)ethyl]-N′-[2-(pyridyl)]thiourea], the SI is listed as 1,100.
